Measured values from several laboratories, pooled; numbers as filed in NIAID ChemDB.

Shared fields: whole-cell or culture tests; organism: Mycobacterium smegmatis

Two numbers with a dash give a range or band.

Cc1ccc(-c2cc(C(=O)Nc3ccc(S(=O)(=O)Nc4cc(C)on4)cc3)c3ccccc3n2)c(C)c1 ; read-out: MIC80 ; method: turbidity ; value: 40–80 µM
CN1[C@@H]2CC[C@H]1CC(OC(c1ccccc1)c1ccccc1)C2 ; strain or isolate: mc2155 ; read-out: MIC99 ; value: 125 µg/mL
c1ccc(Oc2cccc(CN3CCN(Cc4ccncc4)CC3)c2)cc1 ; read-out: EC50 ; value: <100 µM
C[C@@H]1CN(c2c(F)c(N)c3c(=O)c(C(=O)O)cn(C4CC4)c3c2F)C[C@H](C)N1 ; strain or isolate: ATCC 607 ; read-out: MBC ; value: 0.1 µg/mL
CCCCCCCCCCCCCCNC(=O)NC(CCC(=O)O)(CCC(=O)O)CCC(=O)O ; strain or isolate: mc155 ; read-out: MIC ; value: 18 µg/mL
Cc1ccnc(NS(=O)(=O)c2ccc(NC(=O)c3cc(-c4ccc(Br)cc4)nc4ccccc34)cc2)n1 ; read-out: MIC80 ; method: turbidity ; value: >100 µM
Cc1c(OCC(F)(F)F)ccnc1CSc1nc2ccccc2[nH]1 ; strain or isolate: mc2155 ; read-out: MIC90 ; method: resazurin ; value: >100 µM
Cc1ccc(-c2cc(C(=O)Nc3ccc(S(=O)(=O)Nc4onc(C)c4C)cc3)c3ccccc3n2)cc1 ; read-out: MIC80 ; method: turbidity ; value: >100 µM
NC1CCN(CCCCn2ccc(Nc3cc(C(=O)N4CCN(CO)CC4)ccn3)nc2=O)CC1 ; read-out: MIC ; method: turbidity ; value: 32–128 µg/mL
CN[C@@H]1[C@H](O[C@H]2[C@H](O[C@H]3[C@H](O)[C@@H](O)[C@H](N=C(N)N)[C@@H](O)[C@@H]3N=C(N)N)O[C@@H](C)[C@]2(O)C=O)O[C@@H](CO)[C@H](O)[C@H]1O ; strain or isolate: ATCC 607 ; read-out: zone ; tested at: 25 µg/mL ; method: agar diffusion / agar ; value: 35 mm
COc1c(N2CCC(N)C2)c(F)cc2c(=O)c(C(=O)O)cn(C3CC3)c12 ; strain or isolate: A91V mutant ; read-out: MIC99 ; value: 1 µg/mL
CN[C@@H]1[C@H](O[C@H]2[C@H](O[C@H]3[C@H](O)[C@@H](O)[C@H](N=C(N)N)[C@@H](O)[C@@H]3N=C(N)N)O[C@@H](C)[C@]2(O)C=O)O[C@@H](CO)[C@H](O)[C@H]1O ; strain or isolate: ATCC 607 ; read-out: zone ; tested at: 10 µg/mL ; method: agar diffusion / agar ; value: 35 mm
COc1c(N2CC[C@@H](CN)C2)c(F)cc2c(=O)[nH]c(=O)n(C3CC3)c12 ; strain or isolate: D95Y mutant ; read-out: MIC99 ; value: 100 µg/mL
NC1CCN(CCCCn2ccc(Nc3cc(C(=O)NC4CNC4)ccn3)nc2=O)CC1 ; read-out: MIC ; method: turbidity ; value: <8 µg/mL
CCOC(=O)NC(=O)c1ccsc1NC(=O)c1nc2ccccc2s1 ; read-out: MIC99 ; method: turbidity ; value: 4.5 µg/mL
CC1(C)S[C@@H]2[C@H](NC(=O)[C@H](N)c3ccccc3)C(=O)N2[C@H]1C(=O)O ; strain or isolate: ML16 ; read-out: MIC90 ; changes: mspACD knockout ; method: resazurin ; value: >200 µg/mL
COC(=O)[C@@H](N)[C@@H](OC(=O)CNC(=O)C(CS)NC(=O)CCC(NC(=O)OCc1ccccc1)C(=O)O)C(=O)OC ; read-out: MIC90 ; method: turbidity ; value: 6 µg/mL
O=C(O)c1cc2cccc([N+](=O)[O-])c2[nH]1 ; read-out: EC50 ; method: PCR ; value: 314.2 µM
CCCCCCCCCCCCC(CCCCCCCCCCCC)OC(=O)NC(CCC(=O)O)(CCC(=O)O)CCC(=O)O ; strain or isolate: mc155 ; read-out: MIC ; value: 71 µg/mL
NCCOCc1ccc(Nc2ccn(CCCCN3CCC(N)CC3)c(=O)n2)nc1 ; read-out: MIC ; method: turbidity ; value: 32–128 µg/mL
CCCCCCCCCCCCCCCCCCCCCOC(=O)NC(C)(CCC(=O)O)CCC(=O)O ; strain or isolate: mc155 ; read-out: MIC ; value: 177 µg/mL
O=C(Nc1ccc(S(=O)(=O)Nc2nccs2)cc1)Sc1ccc(Br)c2cccc(Cl)c12 ; read-out: MIC80 ; method: turbidity ; value: >100 µM
CCCCCCCCCCCCCCCCCCCCC(=O)NC(C)(CCC(=O)O)CCC(=O)O ; strain or isolate: mc155 ; read-out: MIC ; value: 14 µg/mL
CC(=O)Nc1cc2c3c(c1)n(C/C=C\Cn1cc(C)c(=O)[nH]c1=O)c(=O)n3CCC2 ; strain or isolate: mc2155 ; read-out: EC50 ; method: resazurin / absorbance ; value: >160 µg/mL
CCCCCCCCCCCCCCC(=O)NC(C)(CCC(=O)O)CCC(=O)O ; strain or isolate: mc155 ; read-out: MIC ; value: 9 µg/mL
CC(C)NCCCCNC(C)C ; strain or isolate: ATCC 607 ; read-out: inhibition ; tested at: 1000 µg/mL ; value: 0%
N#Cc1c(N)oc(-c2ccccc2)c1-c1ccccc1 ; read-out: inhibition ; tested at: 50 µg/mL ; method: resazurin ; value: 32%
CCc1nc(NCCCc2ccccc2)c2cc(C)sc2n1 ; strain or isolate: mc2155 ; read-out: EC50 ; method: resazurin ; value: 1.7 µM
NC1CCN(CCCCn2ccc(Nc3ccc(C(=O)NC4CNC4)cn3)nc2=O)CC1 ; read-out: MIC ; method: turbidity ; value: <8 µg/mL
COc1c(N2CC[C@@H](CN)C2)c(F)cn2c(=O)n(N)c(=O)c(C3CC3)c12 ; strain or isolate: G89C mutant ; read-out: MIC99 ; value: 2.5 µg/mL
CC(C)N1CCN(C(C)C)CC1 ; strain or isolate: ATCC 607 ; read-out: EC50 ; value: >1000 µg/mL
CCCCCCCCCCCCCCCCCCCCCCCOC(=O)NC(CCC(=O)O)(CCC(=O)O)CCC(=O)O ; strain or isolate: mc155 ; read-out: MIC ; value: 72 µg/mL
CS(=O)(=O)Nc1cccc(C2=NN(c3nc(-c4ccccc4)c4cc(Cl)ccc4n3)C(c3ccco3)C2)c1 ; read-out: MIC80 ; method: turbidity ; value: 40–80 µM
NCc1ccc(Nc2ccn(CCCCN3CCC(N)CC3)c(=O)n2)nc1 ; read-out: MIC ; method: turbidity ; value: 8–32 µg/mL
c1ccc(Oc2cccc(CN3CCN(c4ccccn4)CC3)c2)cc1 ; read-out: EC50 ; value: <100 µM
O=C(Nc1ccc(S(=O)(=O)Nc2nccs2)cc1)c1cccc(N2C(=O)c3ccccc3C2=O)c1 ; read-out: MIC80 ; method: turbidity ; value: 80 µM
CC(C)NC/C=C/CNC(C)C ; strain or isolate: ATCC 607 ; read-out: EC50 ; value: >250 µg/mL
CN[C@@H]1[C@H](O[C@H]2[C@H](O[C@H]3[C@H](O)[C@@H](O)[C@H](N=C(N)N)[C@@H](O)[C@@H]3N=C(N)N)O[C@@H](C)[C@]2(O)C=O)O[C@@H](CO)[C@H](O)[C@H]1O ; read-out: zone ; tested at: 10 µg ; method: agar diffusion ; value: 30 mm
O=C(Nc1ccc(S(=O)(=O)Nc2nccs2)cc1)c1cc(-c2ccccc2Cl)nc2ccccc12 ; read-out: MIC80 ; method: turbidity ; value: 20–40 µM
O=C(Nc1cccc([N+](=O)[O-])c1)Nc1ccc(Cl)c(C(F)(F)F)c1 ; read-out: MIC90 ; method: broth dilution / turbidity ; value: 0.5 µg/mL
CCCC(C)NCCNC(C)CCC ; strain or isolate: ATCC 607 ; read-out: EC50 ; value: >250 µg/mL
NC1CCN(CCCCn2ccc(Nc3ccc(COC[C@@H]4CCCN4)cn3)nc2=O)CC1 ; read-out: MIC ; method: turbidity ; value: 8–32 µg/mL
CCc1cc(C(N)=S)ccn1 ; strain or isolate: MC^2 802 ; read-out: MIC ; value: 30 µg/mL
CN[C@H](CC(C)C)C(=O)N[C@H]1C(=O)N[C@@H](CC(N)=O)C(=O)N[C@H]2C(=O)N[C@H]3C(=O)N[C@H](C(=O)N[C@H](C(=O)O)c4cc(O)cc(O)c4-c4cc3ccc4O)[C@H](O)c3ccc(c(Cl)c3)Oc3cc2cc(c3O[C@@H]2O[C@H](CO)[C@@H](O)[C@H](O)[C@H]2O[C@H]2C[C@](C)(N)[C@H](O)[C@H](C)O2)Oc2ccc(cc2Cl)[C@H]1O ; strain or isolate: 2 strains ; read-out: Median MIC ; value: 8 µg/mL
COc1c(N2CC[C@@H](CN)C2)c(F)cc2c(=O)c(C(=O)O)cn(C3CC3)c12 ; strain or isolate: A91V mutant ; read-out: MIC99 ; value: 0.125 µg/mL
CC(C)NC/C=C/CN(C/C=C/CNC(C)C)C(C)C ; strain or isolate: ATCC 607 ; read-out: inhibition ; tested at: 1000 µg/mL ; value: 0%
CCCCCCCCCCN(CCCCCCCCCC)C(=O)NC(CCC(=O)O)(CCC(=O)O)CCC(=O)O ; strain or isolate: mc155 ; read-out: MIC ; value: 54 µg/mL
N#Cc1c(NC(=O)c2ccccc2)oc(-c2ccccc2)c1-c1ccccc1 ; read-out: inhibition ; tested at: 50 µg/mL ; method: resazurin ; value: 13%
O=c1cc(-c2ccccc2)c2ccc(Cl)cc2o1 ; strain or isolate: mc2155 ; read-out: MIC90 ; method: resazurin ; value: >100 µg/mL
CCCCCCCCCCCCC(CCCCCCCCCCCC)NC(=O)NC(CCC(=O)O)(CCC(=O)O)CCC(=O)O ; strain or isolate: mc155 ; read-out: MIC ; value: 72 µg/mL
O=C(c1ccco1)N1CCN(Cc2cccc(Oc3ccccc3)c2)CC1 ; read-out: EC50 ; value: 4.79 µM
O=C(Nc1cccc(S(=O)(=O)NC2=NCCCC2)c1)c1cc(-c2ccco2)nc2ccccc12 ; read-out: MIC80 ; method: turbidity ; value: >100 µM
C=C1C2CCC(C(=O)O)[C@@]23CC[C@H](C3)C1(C)C ; read-out: MIC ; changes: MDR quinolone-resistant ; method: agar diffusion ; value: 12.5 µg/mL
CCCCCN(CCCCC)CCN(CCCCC)CCCCC ; strain or isolate: ATCC 607 ; read-out: inhibition ; tested at: 8 µg/mL ; value: 100%
Cc1cn(C/C=C\CN2c3cccc4c3N(CCC4)S2(=O)=O)c(=O)[nH]c1=O ; strain or isolate: mc2155 ; read-out: EC50 ; method: resazurin / absorbance ; value: >160 µg/mL
CCCCCCCCCCCCN(C)CCN(C)C ; strain or isolate: ATCC 607 ; read-out: inhibition ; tested at: 4 µg/mL ; value: 100%
NC1CCN(CCCCn2ccc(Nc3ccc(CN4CCC(N)CC4)cn3)nc2=O)CC1 ; read-out: MIC ; method: turbidity ; value: <8 µg/mL
Cc1ccc(S(=O)(=O)Nc2cccc(C(=O)NC3NC(c4ccc(F)cc4)=CS3)c2)cc1 ; read-out: MIC80 ; method: turbidity ; value: >100 µM

Repeating the final 7 entries:

| smiles | strain or isolate | read-out | tested at | changes | method | value |
|---|---|---|---|---|---|---|
| O=C(Nc1cccc(S(=O)(=O)NC2=NCCCC2)c1)c1cc(-c2ccco2)nc2ccccc12 | - | MIC80 | - | - | turbidity | >100 µM |
| C=C1C2CCC(C(=O)O)[C@@]23CC[C@H](C3)C1(C)C | - | MIC | - | MDR quinolone-resistant | agar diffusion | 12.5 µg/mL |
| CCCCCN(CCCCC)CCN(CCCCC)CCCCC | ATCC 607 | inhibition | 8 µg/mL | - | - | 100% |
| Cc1cn(C/C=C\CN2c3cccc4c3N(CCC4)S2(=O)=O)c(=O)[nH]c1=O | mc2155 | EC50 | - | - | resazurin / absorbance | >160 µg/mL |
| CCCCCCCCCCCCN(C)CCN(C)C | ATCC 607 | inhibition | 4 µg/mL | - | - | 100% |
| NC1CCN(CCCCn2ccc(Nc3ccc(CN4CCC(N)CC4)cn3)nc2=O)CC1 | - | MIC | - | - | turbidity | <8 µg/mL |
| Cc1ccc(S(=O)(=O)Nc2cccc(C(=O)NC3NC(c4ccc(F)cc4)=CS3)c2)cc1 | - | MIC80 | - | - | turbidity | >100 µM |

An empty or dashed field is not shown. Lines come from different laboratories, so protocols vary. ECn: concentration that inhibits the pathogen or its effect by n%. MIC50, MIC90 and the like: level of inhibition, or share of isolates inhibited. Zone: diameter of growth inhibition. Inhibition is in % at the dose shown (toxicity tests: loss of growth or viability).